{"source": "paper PMC6514670", "about": "“Field-Based Affinity Optimization of a Novel Azabicyclohexane Scaffold HIV-1 Entry Inhibitor” (Molecules, 2019)", "note": "“And” between values parts separate entries of the source, which are not always exact repeats. Equal entries are not always repeated.", "data": [{"molecular_target": "B41 SOSIP.664 gp140 trimer (Human immunodeficiency virus type 1, UniProt B3UES2, A505C/E513R/I563P/INS515RR/K514R/T609C)", "assay": "SPR direct interaction analysis with immobilized B41 SOSIP.664 gp140 trimer", "format": "binding, HIV-1", "conditions": "Table 1, 25 °C", "units": {"Kd": "nM"}, "values": [{"smiles": "COc1cnc(-n2cnc(C)n2)c2[nH]cc(C(=O)C(=O)N3CC4CN(C(=O)c5ccccc5)CC4C3)c12", "note": "(centres unmarked) [SC11]", "Kd": 131}, {"smiles": "COc1cnc(-n2cnc(C)n2)c2[nH]cc(C(=O)C(=O)N3CC(CCC(=O)c4ccccc4)C3)c12", "note": "[SC15]", "Kd": 18.1}, {"smiles": "COc1cnc(-n2cnc(C)n2)c2[nH]cc(C(=O)C(=O)N3CC=C(CNC(=O)c4ccccc4)CC3)c12", "note": "[SC45]", "Kd": 1100}]}, {"molecular_target": "B41 SOSIP.664 gp140 trimer (Human immunodeficiency virus type 1, UniProt B3UES2, A505C/E513R/I563P/INS515RR/K514R/T609C)", "assay": "SPR direct interaction analysis with immobilized B41 SOSIP.664 gp140 trimer", "format": "binding, HIV-1", "conditions": "Table 3, 25 °C", "values": [{"smiles": "COc1cnc(-n2cnc(C)n2)c2[nH]cc(C(=O)C(=O)NC3C4CN(C(=O)c5ccccc5)CC43)c12", "note": "(centres unmarked) [SC28]", "Kd": "500 nM and 504 nM"}, {"smiles": "CNC(=O)c1ncc(OC)c2c(C(=O)C(=O)NC3C4CN(C(=O)c5ccccc5)CC43)c[nH]c12", "note": "(centres unmarked) [SC49]", "Kd": "36100 nM"}, {"smiles": "O=C(NC1C2CN(C(=O)c3ccccc3)CC21)C(=O)c1c[nH]c2c(-c3cccnc3)ncc(F)c12", "note": "(centres unmarked) [SC50]", "Kd": "114000 nM"}, {"smiles": "C=C(C(=O)NC1C2CN(C(=O)c3ccccc3)CC21)n1ccc2c(-n3cnc(C)n3)nc3ccnn3c21", "note": "(centres unmarked) [SC52, N-(3-benzoyl-3-azabicyclo[3.1.0]hexan-6-yl)-2-(5-(3-methyl-1H-1,2,4-triazol-1-yl)-8H-pyrazolo[1,5-a]pyrrolo[3,2-e]pyrimidin-8-yl)acrylamide]", "Kd": "23700 nM"}, {"smiles": "Nc1nc(-c2ccc(F)c3c(C(=O)C(=O)NC4C5CN(C(=O)c6ccccc6)CC54)c[nH]c23)no1", "note": "(centres unmarked) [SC55, 2-(7-(5-amino-1,2,4-oxadiazol-3-yl)-4-fluoro-1H-indol-3-yl)-N-(3-benzoyl-3-azabicyclo[3.1.0]hexan-6-yl)-2-oxoacetamide]", "Kd": "11400 nM"}]}]}
